Assays:
[1] = biological target: protective antigen (PA) from B. anthracis, recombinant

B1: human furin (amino acid residues 1-604) (protein)
chain: QKVFTNTWAVRIPGGPAVANSVARKHGFLNLGQIFGDYYHFWHRGVTKRSLSPHRPRHSRLQREPQVQWLEQQVAKRRTKRDVYQEPTDPKFPQQWYLSGVTQRDLNVKAAWAQGYTGHGIVVSILDDGIEKNHPDLAGNYDPGASFDVNDQDPDPQPRYTQMNDNRHGTRCAGEVAAVANNGVCGVGVAYNARIGGVRMLDGEVTDAVEARSLGLNPNHIHIYSASWGPEDDGKTVDGPARLAEEAFFRGVSQGRGGLGSIFVWASGNGGREHDSCNCDGYTNSIYTLSISSATQFGNVPWYSEACSSTLATTYSSGNQNEKQIVTTDLRQKCTESHTGTSASAPLAAGIIALTLEANKNLTWRDMQHLVVQTSKPAHLNANDWATNGVGRKVSHSYGYGLLDAGAMVALAQNWTTVAPQRKCIIDILTEPKDIGKRLEVRKTVTACLGEPNHITRLEHAQARLTLSYNRRGDLAIHLVSPMGTRSTLLAARPHDYSADGFNDWAFMTTHSWDEDPSGEWVLEIENTSEANNYGTLTKFTLVLYGTAPEGLPVPPESSGCKTLTSSQACVVCEEGFS
Question: With B1 as the protein, how does the “furin cleavage, products analysed by SDS-PAGE and Coomassie blue staining” value (F1mutV-PA triple antigen) read?
Answer: F1mut-PA and rPA had similar sensitivity to various concentrations of furin

Question: And the “furin cleavage, products analysed by SDS-PAGE and Coomassie blue staining” value [1]?
Answer: F1mut-PA and rPA had similar sensitivity to various concentrations of furin
